The test system of the test is peripheral blood lymphocytes from patients with severe atopic eczema. As to the kind of experiment: Spontaneous cytokine secretion, cytometric bead array, patients with atopic eczema. The note with it: patients with atopic eczema (n=3), 200 μg/10^6 cells, 2 days (FIG. 9).

On to QELDYLTRH, for which the IFNγ synthesis result is reported as “in particular also the IFNγ synthesis”; the “Spontaneous cytokine production of all Th populations (Th1 and Th2 cytokines)” value is reported as “inhibits the increased cytokine production of all Th populations”.
